Laboratory results from article PMC10147923, “Pain-causing stinging nettle toxins target TMEM233 to modulate NaV1.7 function” (Nature Communications, 2023).
Entries after “also recorded” stand apart in the source; their conditions may differ. Read-outs that look alike come from different tables or passages of the source. Positions of bridges follow the written chain, without caps; N, C: chain ends. Residues, ends and D or L forms follow the SMILES beside them.

Tests used:
[1] = tested on: total and TTX-s NaV current in wild-type DRG neurons; assay: Persistent total NaV current, manual patch clamp, mouse DRG neurons; type: cell-based
NaV1.8 = type: cell-based, mouse

Row | SMILES | reversibility of effects on NaV function [1] | effect on persistent NaV current / NaV inactivation in DRG neurons ([1]; ExTxA 100 nM) | effect on NaV1.8 persistent current (NaV1.8) | effect on persistent NaV current / NaV inactivation in DRG neurons [1]
1 | CC[C@H](C)[C@@H]1NC(=O)[C@H](CCCNC(=N)N)NC(=O)[C@H](Cc2ccccc2)NC(=O)[C@H](CC(C)C)NC(=O)[C@H](CO)NC(=O)[C@@H]2CSSC[C@@H]3NC(=O)[C@H]([C@@H](C)O)NC(=O)[C@H](CSSC[C@H](NC(=O)[C@H](CCCNC(=N)N)NC(=O)[C@@H]4CCCN4C(=O)[C@@H](N)CC(C)C)C(=O)N[C@@H](CC(=O)O)C(=O)N[C@@H](CO)C(=O)N4CCC[C@H]4C(=O)N[C@@H](Cc4ccccc4)C(=O)N2)NC(=O)[C@H](CCCCN)NC(=O)[C@H](CC(=O)O)NC(=O)CNC(=O)[C@H](CSSC[C@@H](C(=O)N[C@H](C(=O)N2CCC[C@H]2C(=O)N[C@@H](CC(=O)O)C(=O)N[C@H](C(=O)O)C(C)C)C(C)C)NC(=O)[C@H](CC(C)C)NC(=O)CNC(=O)[C@H](Cc2ccccc2)NC(=O)[C@H]([C@@H](C)CC)NC(=O)[C@@H]2CCCN2C(=O)[C@H](CC(C)C)NC(=O)[C@@H]2CCCN2C(=O)[C@H](C(C)C)NC3=O)NC(=O)[C@H](CC(C)C)NC(=O)CNC1=O [ExTxA, excelsatoxin A] (H-LPRCDSPFCSLFRIGLCGDKCTCVPLPIFGLCVPDV-OH; disulfide 4-21, 9-23, 17-32) | near-irreversible effects | induces persistent NaV currents; also recorded: striking inhibition of NaV inactivation, leading to persistent currents | slightly increased persistent currents of NaV1.8 channels; also recorded: Smaller, but statistically significant effects | –
2 | NC1=N[C@H](O)[C@H]2[C@H]3O[C@]4(O)O[C@@H]([C@@H](O)[C@@]2(N1)[C@@H]4O)[C@]3(O)CO [TTX, tetrodotoxin, reference compound] | – | – | – | blocked
